# Data as given in US7625875B2 (priority 2002, dated 2009).
# The chains behind the UniProt entries cited, without tags or fusion partners. Residues count along the entry.
# UniProt P19711, 3270-3988 limits assumed: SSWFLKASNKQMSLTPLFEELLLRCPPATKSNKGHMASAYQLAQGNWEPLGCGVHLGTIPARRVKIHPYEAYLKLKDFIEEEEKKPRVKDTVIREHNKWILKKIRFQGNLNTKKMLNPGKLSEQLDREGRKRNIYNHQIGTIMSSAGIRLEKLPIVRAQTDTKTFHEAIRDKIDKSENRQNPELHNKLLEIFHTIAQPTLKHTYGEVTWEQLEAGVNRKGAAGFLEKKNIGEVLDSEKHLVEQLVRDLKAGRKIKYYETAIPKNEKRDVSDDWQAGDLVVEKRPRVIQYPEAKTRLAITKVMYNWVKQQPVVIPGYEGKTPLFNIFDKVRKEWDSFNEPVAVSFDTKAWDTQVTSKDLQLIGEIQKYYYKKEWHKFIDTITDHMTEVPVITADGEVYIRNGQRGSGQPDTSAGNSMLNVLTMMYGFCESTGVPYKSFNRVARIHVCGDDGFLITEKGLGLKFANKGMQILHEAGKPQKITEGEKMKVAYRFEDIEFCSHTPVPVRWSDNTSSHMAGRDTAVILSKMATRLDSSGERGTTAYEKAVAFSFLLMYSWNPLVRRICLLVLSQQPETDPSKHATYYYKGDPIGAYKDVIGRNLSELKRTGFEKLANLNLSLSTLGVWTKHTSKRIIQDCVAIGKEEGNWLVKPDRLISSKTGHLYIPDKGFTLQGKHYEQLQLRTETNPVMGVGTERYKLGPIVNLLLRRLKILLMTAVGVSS
# Target: BVDV NS5B RNA-dependent RNA polymerase (Bovine viral diarrhea virus, UniProt P19711)
# Settings: read-out: Michaelis-Menten constant (Km)
compound,measurement,value
Nc1ccn([C@@H]2O[C@H](COP(=O)(O)OP(=O)(O)OP(=O)(O)O)[C@@H](O)[C@H]2O)c(=O)n1 [CTP],Km,0.03 µM
